Experiments:
[1] = target: HA glycoprotein of A/Puerto Rico/8/1934 (H1N1) influenza virus, purified (influenza virus A/Puerto Rico/8/1934 …); assay: ELISA, plate coated with the fusion protein
[2] = target: SARS-COV-2 spike glycoprotein (SARS-COV-2); assay: ELISA, plate coated with hLAG3-Ig, anti-SARS-Cov-2 antibody detection

B1: hCTLA-4-IG (Fc fusion)
chain: not shown
binding result [1]: no binding

B2: hLAG-3-Ig conjugate (extracellular domain of human LAG-3, amino acids 23-450, fused with the constan (Fc fusion)
chain: LQPGAEVPVVWAQEGAPAQLPCSPTIPLQDLSLLRRAGVTWQHQPDSGPPAAAPGHPLAPGPHPAAPSSWGPRPRRYTVLSVGPGGLRSGRLPLQPRVQLDERGRQRGDFSLWLRPARRADAGEYRAAVHLRDRALSCRLRLRLGQASMTASPPGSLRASDWVILNCSFSRPDRPASVHWFRNRGQGRVPVRESPHHHLAESFLFLPQVSPMDSGPWGCILTYRDGFNVSIMYNLTVLGLEPPTPLTVYAGAGSRVGLPCRLPAGVGTRSFLTAKWTPPGGGPDLLVTGDNGDFTLRLEDVSQAQAGTYTCHIHLQEQQLNATVTLAIITVTPKSFGSPGSLGKLLCEVTPVSGQERFVWSSLDTPSQRSFSGPWLEAQEAQLLSQPWQCQLYQGERLLGAAVYFTELSSPGAQRSGRAPGALPAGHLASTKGPSVFPLAPSSKSTSGGTAALGCLVKDYFPEPVTVSWNSGALTSGVHTFPAVLQSSGLYSLSSVVTVPSSSLGTQTYICNVNHKPSNTKVDKKV[in this place human IgG1 Fc]
binding result [2]: no binding

B3: hPD-1-Ig (Fc fusion)
chain: LDSPDRPWNPPTFSPALLVVTEGDNATFTCSFSNTSESFVLNWYRMSPSNQTDKLAAFPEDRSQPGQDCRFRVTQLPNGRDFHMSVVRARRNDSGTYLCGAISLAPKAQIKESLRAELRVTERRAEVPTAHPSPSPRPAGQFQ
binding result [1]: no binding

From patent US20260265372A1 (TECHNION RESEARCH AND DEVELOPMENT FOUNDATION, published 2026)
